Pooled drug test results. Numbers come from NIAID ChemDB, via PubChem.

All rows: tests on isolated targets; species: HIV-1; target: Reverse transcriptase; read by: nucleotide incorporation / radiometric; endpoint: inhibition

Neighbouring rows are from separate reports. Inhibition is in % at the dose shown (toxicity tests: loss of growth or viability). An empty or dashed field is not shown.

SMILES | tested at | mutations | strain | result
COc1c(OC)c(OC)c(-c2cc(=O)c3c(O)cc(O)cc3o2)c(OC)c1OC | 200 µg/mL |  |  | 14.8%
CCN1c2ncc(CCc3ccccc3)cc2C(=O)Nc2c(C)cc(Cl)nc21 | 1 µM |  | WT | 94%
CO[C@]12C=C3C(=O)c4c(O)c5c(c(CC=C(C)C)c4O[C@]34C(C1)C(C)(C)O[C@]4(CC=C(C)C)C2=O)OC(C)(C)C=C5 | 200 µg/mL |  |  | 23.2%
COc1cc(O)c2c(=O)cc(-c3c(OC)c(OC)c(OC)c(OC)c3OC)oc2c1 | 200 µg/mL |  |  | 7.7%
CC(C)=CCc1c2c(c(O)c3c1O[C@@]14C(C[C@H]5CC1C(C)(C)O[C@]4(C/C=C(\C)C=O)C5=O)C3=O)C=CC(C)(C)O2 | 200 µg/mL |  |  | 92.4%
COc1cc(-c2c(C)c(CO)c(O[C@@H]3O[C@H](CO)[C@@H](O)[C@H](O)[C@H]3O)c3cc(OC)c(OC)cc23)ccc1O | 200 µM |  |  | 0%
CC(C)=CCc1c(O)c(CC=C(C)C)c2c(c1O)C(=O)C1=C[C@H]3CC4C(C)(C)O[C@](CC=C(C)C)(C3=O)[C@]14O2 | 200 µg/mL |  |  | 52.1%
C=C(CC[C@@H](C)[C@H]1CC[C@@]2(C)[C@@H]3CC[C@H]4[C@](C)(C(=O)O)[C@@H](O)CC[C@@]45C[C@@]35CC[C@]12C)C(C)C | 200 µg/mL |  |  | 93.6%
CC(C)=CCc1c2c(c(O)c3c1O[C@@]14C(=C[C@H]5CC1C(C)(C)O[C@]4(CC=C(C)C)C5=O)C3=O)C=CC(C)(C)O2 | 200 µg/mL |  |  | 94.1%
CCN1c2ncc(CNc3cccc([N+](=O)[O-])c3)cc2C(=O)N(C)c2ccc(Cl)nc21 | 1 µM | RT-Y181C |  | 72%
C=CC1=C(C)c2cc3[n-]c(cc4[n-]c(cc5nc(cc1n2)C(C)=C5C=C)c(C)c4CCC(=O)O)c(CCC(=O)O)c3C.[Mg+2] | 15 µM |  |  | 47.5%
CC(C)=CC(=O)C[C@@H](C)[C@H]1CC[C@@]2(C)[C@@H]3CC[C@H]4[C@](C)(C(=O)O)[C@@H](O)CC[C@@]45C[C@@]35CC[C@]12C | 200 µg/mL |  |  | 92.3%
Nc1ncnc2c1ncn2CCOCP(=O)(O)O | 500 µM |  |  | 0%
CC(C)=CCc1c2c(c(O)c3c1O[C@@]14C(=C[C@H]5CC1C(C)(C)O[C@]4(C/C=C(/C)C(=O)O)C5=O)C3=O)C=CC(C)(C)O2 | 200 µg/mL |  |  | 93.4%
CC/C=C\C/C=C\C/C=C\CCCCCCCC(=O)OC[C@H](CO[C@H]1O[C@H](CS(=O)(=O)O)[C@@H](O)[C@H](OC(=O)CCCCCCCCCCCCCCC)[C@H]1OC(=O)CCCCCCCCCCCCCCC)OC(=O)CCCCCCCCCCCCCCC | 10 µM |  |  | 100%
CCN1c2ncc(Cc3cccc(O)c3)cc2C(=O)N(C)c2ccc(Cl)nc21 | 1 µM | RT-Y181C |  | 86%